Compound potency records, mixed from different reports. Data source: NIAID ChemDB in PubChem.

All rows: tests in culture; species: Varicella zoster virus; cells: HEL; read-out: EC50

ECn: concentration that inhibits the pathogen or its effect by n%. Rows are shuffled and stem from different studies.

{"SMILES": "O=c1[nH]c(=O)n([C@H]2C[C@H](O)[C@@H](CO)O2)cc1/C=C/Br", "strain": "OKA", "read by": "cytopathic effect", "value": "0.0074 µM"}
{"SMILES": "O=c1[nH]c(=O)n([C@H]2C[C@H](O)[C@@H](CO)O2)cc1I", "strain": "YS/R", "read by": "plaque count", "value": "1.9 µg/mL"}
{"SMILES": "Cc1c(Br)cc(Br)c2ncc(CSC(C)c3cccs3)n12", "strain": "YS/R (TK-)", "read by": "plaque count", "value": ">2 µg/mL"}
{"SMILES": "CCCCCCCC/C=C/CCCCCCCC(=O)O", "strain": "YS/R (TK-)", "read by": "cytopathic effect", "value": ">100 µM"}
{"SMILES": "Cc1cccc(CSCc2cnc3c(Br)cc(Br)c(C)n23)c1", "strain": "07/1 (TK-)", "read by": "plaque count", "value": ">20 µg/mL"}
{"SMILES": "Nc1ncnc2c1ncn2[C@@H]1C[C@H](CO)[C@@H](O)[C@@H]1O", "strain": "YS-W1 H13", "read by": "plaque count", "value": "1 µg/mL"}
{"SMILES": "O=c1[nH]c(=O)n([C@@H]2O[C@H](CO)[C@@H](O)[C@@H]2O)cc1/C=C/Br", "strain": "Oka CF1742-resistant", "read by": "cytopathic effect", "value": ">57 µM"}
{"SMILES": "Cc1c(Br)cc(Br)c2ncc(CSCc3ccc(F)cc3)n12", "strain": "OKA (TK+)", "read by": "plaque count", "value": ">5 µg/mL"}
{"SMILES": "Nc1ccn(C[C@@H](CO)OCP(=O)(O)O)c(=O)n1", "strain": "YS", "read by": "cytopathic effect", "value": "0.58 µM"}
{"SMILES": "O=C(O)P(=O)(O)O", "strain": "Oka penciclovir-resistant/B", "read by": "cytopathic effect", "value": "128.5 µM"}
{"SMILES": "CCOC(=O)/C=C/C=C/[C@H]1O[C@@H](n2ccc(=O)[nH]c2=O)[C@H](O)[C@@H]1O", "strain": "07/1", "value": ">120 µM"}
{"SMILES": "Nc1nc2c(ncn2CCC(CO)CO)c(=O)[nH]1", "strain": "Clinical isolate VZV-13", "read by": "cytopathic effect", "value": "3.54 µM"}
{"SMILES": "Cc1c(Br)cc(Br)c2ncc(CSCc3ccc(Cl)cc3)n12", "strain": "07/1 (TK-)", "read by": "plaque count", "value": "2.8 µg/mL"}
{"SMILES": "Nc1nc(N)c2ncn(CCOCP(=O)(O)O)c2n1", "strain": "Oka PFA-resistant/A", "read by": "cytopathic effect", "value": "14.5 µM"}
{"SMILES": "Cc1c(Br)cc(Br)c2ncc(CSCCCc3ccccc3)n12", "strain": "OKA (TK+)", "read by": "plaque count", "value": "24 µg/mL"}

2 of the rows above, restated:

SMILES	strain	read by	value
Cc1cccc(CSCc2cnc3c(Br)cc(Br)c(C)n23)c1	07/1 (TK-)	plaque count	>20 µg/mL
Cc1c(Br)cc(Br)c2ncc(CSCc3ccc(F)cc3)n12	OKA (TK+)	plaque count	>5 µg/mL